# Measured values as given in patent publication US7094581B2, “Hyaluronan synthases and methods of making and using same” (The Board of Regents of the University of Oklahoma, priority 1998, dated 2006).
# B1: Wildtype: wildtype Streptococcus pyogenes hyaluronan synthase (spHAS-His6), SEQ ID NO:4 (protein)
# chain: MPIFKKTLIVLSFIFLISILIYLNMYLFGTSTVGIYGVILITYLVIKLGLSFLYEPFKGNPHDYKVAAVIPSYNEDAESLLETLKSVLAQTYPLSEIYIVDDGSSNTDAIQLIEEYVNREVDICRNVIVHRSLVNKGKRHAQAWAFERSDADVFLTVDSDTYIYPNALEELLKSFNDETVYAATGHLNARNRQTNLLTRLTDIRYDNAFGVERAAQSLTGNILVCSGPLSIYRREVIIPNLERYKNQTFLGLPVSIGDDRCLTNYAIDLGRTVYQSTARCDTDVPFQLKSYLKQQNRWNKSFFRESIISVKKILSNPIVALWTIFEVVMFMMLIVAIGNLLFNQAIQLDLIKLFAFLSIIFIVALCRNVHYMVKHPASFLLSPLYGILHLFVLQPLKLYSLCTIKNTEWGTRKKVTIFK
# modifications: His6 tag; Streptococcus pyogenes
# B2: WT: wild-type Streptococcus equisimilis hyaluronan synthase (seHAS-His6), SEQ ID NO:2 (protein, listed as Streptococcus equisimilis)
# chain: MRTLKNLITVVAFSIFWVLLIYVNVYLFGAKGSLSIYGFLLIAYLLVKMSLSFFYKPFKGRAGQYKVAAIIPSYNEDAESLLETLKSVQQQTYPLAEIYVVDDGSADETGIKRIEDYVRDTGDLSSNVIVHRSEKNQGKRHAQAWAFERSDADVFLTVDSDTYIYPDALEELLKTFNDPTVFAATGHLNVRNRQTNLLTRLTDIRYDNAFGVERAAQSVTGNILVCSGPLSVYRREVVVPNIDRYINQTFLGIPVSIGDDRCLTNYATDLGKTVYQSTAKCITDVPDKMSTYLKQQNRWNKSFFRESIISVKKIMNNPFVALWTILEVSMFMMLVYSVVDFFVGNVREFDWLRVLAFLVIIFIVALCRNIHYMLKHPLSFLLSPFYGVLHLFVLQPLKLYSLFTIRNADWGTRKKLL
# modifications: His6 tag
# How the values were obtained:
# spHAS = assay: HA size range and prevalent size made by spHAS variants, 1% agarose gel; type: biochemical, Streptococcus pyogenes; details: HA made by spHAS variants in one hour at saturating substrate
# seHAS = assay: HA size range and prevalent size made by seHAS variants, 1% agarose gel; type: biochemical, Streptococcus equisimilis; details: HA made by seHAS variants in one hour at saturating substrate
Molecule,2–4 MDa (3–6 Kb) (spHAS),4–6 MDa (6–9 Kb) (spHAS),<2 MDa (<3 Kb) (spHAS),>6 MDa (9–>48.5 Kb) (spHAS),Peak Size (MDa) (spHAS),2–4 MDa (3–6 Kb) (seHAS),4–6 MDa (6–9 Kb) (seHAS),<2 MDa (<3 Kb) (seHAS),>6 MDa (9–>48.5 Kb) (seHAS),Peak Size (MDa) (seHAS)
B1,29 ± 8 percentage of total counts (IDV),12 ± 2 percentage of total counts (IDV),33 ± 5 percentage of total counts (IDV),26 ± 8 percentage of total counts (IDV),2–3 MDa,–,–,–,–,–
B2,–,–,–,–,–,25 ± 7 percentage of total counts (IDV),14 ± 5 percentage of total counts (IDV),42 ± 21 percentage of total counts (IDV),19 ± 9 percentage of total counts (IDV),1–2 MDa
